Pooled drug test results. Numbers come from NIAID ChemDB, via PubChem.

Common to all: whole-cell or culture tests; agent: HIV-1; read-out: fold resistance

Neighbouring rows are from separate reports. An empty or dashed field is not shown. Fold resistance has wild type as its base.

structure,mutations,cells,strain or isolate,method,value
Cc1ccnc2c1NC(=O)c1cccnc1N2C1CC1,RT-D67G,CBMC,HxB2D(RT-D67G),RT activity,0.406
Cc1cn([C@H]2C=C[C@@H](CO)O2)c(=O)[nH]c1=O,RT-delta67 K103N,MT-2,,p24,7.1
CC(=O)Oc1ccc(/C=C/C(=O)O[C@@H](C(=O)O)[C@@H](OC(=O)/C=C/c2ccc(OC(C)=O)c(OC(C)=O)c2)C(=O)O)cc1OC(C)=O,AMD3100-resistant,MT-4,NL4-3,,>9.25
CC(C)CN(C[C@@H](O)[C@H](Cc1ccccc1)NC(=O)O[C@H]1CO[C@H]2OCC(F)(F)[C@H]21)S(=O)(=O)c1ccc(N)cc1,A28S L33F V82I GRL04810-resistant,MT-4,NL4-3,,13
COc1cncc(-c2cnc(C(C)(C)N3CCN(C[C@@H](O)C[C@@H](Cc4nnc(-c5ccccc5)o4)C(=O)N[C@H]4c5ccccc5OC[C@H]4O)[C@H](C(=O)NCC(F)(F)F)C3)o2)c1,PR-L10I M46I I54V Q58E L63P I64V V77I V82F I84V L90M I93L,MT-4,K-60 Clinical isolate,p24,1
Cc1ccnc2c1NC(=O)c1cccnc1N2C1CC1,RT-K103N M184V,MAGI (CCR5) + MAGI,NL4-3,β-galactosidase,37.7
S=C(NCCc1ccccn1)Nc1ccc(Br)cn1,RT-L74V M41L V106A T215Y,PBMC,NRTI resistant (RT L74V M41L V106A T215Y) MDR,p24,2.86
Cc1cn([C@H]2C[C@H](N=[N+]=[N-])[C@@H](CO)O2)c(=O)[nH]c1=O,INTG-N155S,,,,1
CC(C)=CCOc1cc(NC(=S)c2ccoc2C)ccc1Cl,RT-V106A,CEM,IIIB,syncytia,12.78
CC(C)CN(C[C@@H](O)[C@H](Cc1ccccc1)NC(=O)[C@H](CC(N)=O)NC(=O)c1ccc2ccccc2n1)C(=O)NC(C)(C)C,PR-L63P V82T,MT-4,NL4-3,p24,1
Cc1cn([C@H]2C=C[C@@H](CO)O2)c(=O)[nH]c1=O,RT-T69K K70G V75I F77L F116Y Q151M M184V,PBMC,56252-1 NRTI resistant recombinant,RT activity,20
COC(=O)c1cc2c(c(OC)c1-c1ccc(N(C)C)cc1)OCO2,L74V,C8166,74V,antigen,0.8
CC(C)Nc1cccnc1N1CCN(C(=O)c2cc3ccccc3[nH]2)CC1,RT-L100I,CEM,TIBO-1(RT-L100I),syncytia,40
CCc1cc(NCc2nc3c(Cl)ccc(Cl)c3o2)c(=O)[nH]c1C,RT-Y181C,CEM,IIIB-TSAO-m3T(10)(RT-Y181C),syncytia,2.33
Fc1cccc(Cl)c1C1OCc2nc3ccccc3n21,RT-K103N,CEM,TIBO R82150-resistant (RT K103N),cytopathic effect / MTT,>2.35
Nc1ccn([C@H]2CC[C@@H](CO)O2)c(=O)n1,RT-Y181C,CEM,IIIB-Nevirapine(1.0)(RT-Y181C),syncytia,1.56
CCNc1cccnc1N1CCN(C(=O)c2cc3cc(OC)ccc3[nH]2)CC1,RT-V106A,PBMC,BaL,p24,17
CC(C)Nc1cccnc1N1CCN(C(=O)c2cc3cc(NS(C)(=O)=O)ccc3[nH]2)CC1,,PBMC,458 clinical isolates delavirdine-resistant,p24,77
O=c1[nH]cnc2c1ncn2[C@H]1CC[C@@H](CO)O1,RT-L100I,CEM,IIIB-BHAP)(0.1)(RT-L100I,syncytia,2.2
Cc1occc1C(=S)Nc1ccc(Cl)c(/C=N/OC(C)(C)C)c1,RT-Y181C,CEM + CEM-SS,E BPTU-resistant (RT Y181C),cytopathic effect / XTT,0.3
Nc1nc(=O)n([C@H]2CO[C@@H](CO)S2)cc1F,RT-M184I,MT-4,HXB2D(RT-M184I),RT activity,3.75
CC(C)Nc1cccnc1N1CCN(C(=O)c2cc3cc(NS(C)(=O)=O)ccc3[nH]2)CC1,RT-T69N L74I Q151M M184V,MT-4,LZ-07.96 (HXB2 RT T69N L74I Q151M M184V),cytopathic effect,2.5
CC(C)Nc1cccnc1N1CCN(C(=O)c2cc3ccccc3[nH]2)CC1,RT-Y181C,CEM,IIIB,syncytia,12.5
C/C=C/CSc1cc(NC(=S)c2ccsc2C)ccc1Cl,RT-Y181C,CEM + CEM-SS,UC38-RS (RT-Y181C),cytopathic effect / XTT,>10
Nc1ccn([C@@H]2CS[C@H](CO)O2)c(=O)n1,RT-M41L E44D D67N T69D Y118I M184V L210W T215Y,PBMC,4755-5 NRTI resistant recombinant,RT activity,>300
Cc1ccnc2c1NC(=O)c1cccnc1N2C1CC1,RT-Y181C,CEM,IIIB,syncytia,71.7
Cc1cn([C@H]2C=C[C@@H](CO)O2)c(=O)[nH]c1=O,RT-A62V S68G T69D V75I F77L F116Y Q151M,MT-4,BI-12.96 (HXB2(RT-A62V S68G T69D V75I F77L F116Y Q151M)),cytopathic effect,>24
CN1C(=O)N(Cc2ccccc2)S(=O)(=O)c2cscc21,RT-D67N K70R T215F K219Q,MT-4,ADP/141,syncytia,0.69
Cc1cn([C@@H]2O[C@H](CO[Si](C)(C)C(C)(C)C)C3(OS(=O)(=O)C=C3N)[C@H]2O[Si](C)(C)C(C)(C)C)c(=O)n(C)c1=O,RT-K103N,CEM,IIIB,syncytia,5.75
Nc1nc(=O)n([C@@H]2CO[C@H](CO)S2)cc1F,RT-M184I,CBMC,HXB2D(RT-M184I),RT activity,1.06
CCN1C(=O)N(Cc2ccccc2)S(=O)(=O)c2cscc21,RT-K103N,CEM,,syncytia,>111
CC[C@H]1C(=O)Nc2ccc(F)cc2N1C(=O)OC(C)C,RT-K103N,CEM,NNRTI-resistant,cytopathic effect,66.6
CC(C)OC(=O)OCOP(=O)(CO[C@H](C)Cn1cnc2c(N)ncnc21)OCOC(=O)OC(C)C,RT-T69K K70G V75I F77L F116Y Q151M M184V,PBMC,1617-1 NRTI resistant recombinant,RT activity,2.4
CC(=O)c1ccc(C)cc1NC(C(N)=O)c1c(Cl)cccc1Cl,RT-E138A S162C E169D T200A L214F,MT-4,HXB2 (RT E138A S162C E169D T200A L214F) Clinical isolate,cytopathic effect / MTT,33
CC(C)=CCN1Cc2cc(Cl)cc3[nH]c(=S)n(c23)C[C@@H]1C,RT-E138K,CEM,IIIB,syncytia,4.17
CC(C)CN(C[C@@H](O)[C@H](Cc1ccccc1)NC(=O)O[C@H]1CCOC1)S(=O)(=O)c1ccc(N)cc1,L10F M46I I54V V82A LPV resistant,MT-4,NL4-3,,1
COc1ccc2c(c1)N(C(=O)OC(C)C)[C@@H](CSC)C(=S)N2,RT-E138K,MT-4,IIIB,cytopathic effect / MTT,3
O=c1[nH]cnc2c1ncn2[C@H]1CC[C@@H](CO)O1,RT-F77L F116Y Q151M,MT-4,FO-08.96 (HXB2 RT F77L F116Y Q151M),cytopathic effect,12.3
CCn1c(=O)c(C)cn([C@@H]2O[C@H](CO[Si](C)(C)C(C)(C)C)C3(OS(=O)(=O)C=C3N)[C@H]2O[Si](C)(C)C(C)(C)C)c1=O,RT-E138K,CEM,IIIB,syncytia,>660
COc1ccc(S(=O)(=O)N(CC(C)C)C[C@@H](O)[C@H](Cc2ccccc2)NC(=O)O[C@H]2CO[C@H]3OCC(F)(F)[C@H]32)cc1,L10F V32I M46I I45M A71V I84V APV resistant,MT-4,NL4-3,,860
Nc1ccn([C@H]2CC[C@@H](CO)O2)c(=O)n1,RT-E138A,MT-4,Recombinant mutant,cytopathic effect / MTT,0.6
CC(C)Nc1cccnc1N1CCN(C(=O)c2cc3cc(NS(C)(=O)=O)ccc3[nH]2)CC1,RT-V106A,Macrophage + Monocytes/macrophages,BaL,p24,160
CCNc1cccnc1N1CCN(C(=O)c2cc3cc(OC)ccc3[nH]2)CC1,RT-V179N,CEM,IIIB-Pyridinone(0.1)(RT-V179N,syncytia,26.5
Cc1ccnc2c1NC(=O)c1cccnc1N2C1CC1,RT-K101E,CEM + CEM-SS,NL4-3 (RT K101E),cytopathic effect / XTT,15
N#CCN1C(=O)N(Cc2ccccc2)S(=O)(=O)c2cscc21,RT-D67N K70R T215F K219Q,MT-4,ADP/141,syncytia,1.33
Cc1cn([C@H]2C[C@H](N=[N+]=[N-])[C@@H](CO)O2)c(=O)[nH]c1=O,,PBMC,472 clinical isolates AZT-resistant,p24,4.67
Cc1cn([C@H]2C=C[C@@H](CO)O2)c(=O)[nH]c1=O,RT-M184V,MAGI (CCR5) + MAGI,HXB2,β-galactosidase,0.74
Cc1cn([C@H]2C[C@H](F)[C@@H](CO)O2)c(=O)[nH]c1=O,RT-V75I F77L F116Y Q151M,PBMC,BS NRTI-MDR (RT-V75I F77L F116Y Q151M),antigen,0.7
Nc1nc2c(ncn2[C@H]2CC[C@@H](CO)O2)c(=O)[nH]1,RT-E138K,CEM,TSAO(RT-E138K),syncytia,1.25
CC(C)(C)NC(=O)[C@@H]1C[C@@H]2CCCC[C@@H]2CN1C[C@@H](O)[C@H](Cc1ccccc1)NC(=O)[C@H](CC(N)=O)NC(=O)c1ccc2ccccc2n1,PR-L10R,MT-4,NL4-3,p24,2
O=C(N[C@H]1c2ccccc2OC[C@H]1O)[C@H](Cc1nnco1)C[C@H](O)CN1CCN(Cc2ccc(-c3ccc(Cl)cc3)o2)C[C@H]1C(=O)NCC(F)(F)F,PR-L10I M36I N37D M46I R57K L63P A71V G73S I84V L90M I93L,MT-4,V-18 Clinical isolate,p24,1.98
Cc1cn([C@@H]2O[C@H](CO[Si](C)(C)C(C)(C)C)C3(OS(=O)(=O)C=C3N)[C@H]2O[Si](C)(C)C(C)(C)C)c(=O)n(C)c1=O,RT-E138K,CEM,TSAO-m3T-resistant,cytopathic effect,>963
CCCc1nnc(C[C@H](C[C@H](O)CN2CCN(C(C)(C)c3ncc(-c4ccc(F)cc4)o3)C[C@H]2C(=O)NCC(F)(F)F)C(=O)N[C@H]2c3ccccc3OC[C@H]2O)o1,PR-L10I N37S R41K M46I I54V I62V L63P A71V V77I V82A L90M I93L,MT-4,Q-60 Clinical isolate,p24,≤0.5
CC(C)=CCN1Cc2cc(Cl)cc3[nH]c(=S)n(c23)C[C@@H]1C,RT-E138A S162C E169D T200A L214F,CEM,HXB2 (RT E138A S162C E169D T200A L214F) Clinical isolate,syncytia,0.7
N#CCN1C(=O)N(Cc2cccc(F)c2)S(=O)(=O)c2cscc21,RT-L100I,CEM,,syncytia,4.83
Cc1cn([C@@H]2O[C@H](CO[Si](C)(C)C(C)(C)C)C3(OS(=O)(=O)C=C3N)[C@H]2O[Si](C)(C)C(C)(C)C)c(=O)n(C)c1=O,RT-L100I,CEM,IIIB,cytopathic effect,2.73
Nc1ccn([C@@H]2CO[C@H](CO)S2)c(=O)n1,RT-D67G,MT-4,HxB2D(RT-D67G),RT activity,2.93
CC(C)c1nc(CN(C)C(=O)N[C@H](C(=O)N[C@@H](Cc2ccccc2)C[C@H](O)[C@H](Cc2ccccc2)NC(=O)OCc2cncs2)C(C)C)cs1,PR-D30N A71V,MT-4,NL4-3,p24,0.2
Cc1cn([C@H]2C[C@H](N=[N+]=[N-])[C@@H](CO)O2)c(=O)[nH]c1=O,RT-K65R M184V,MT-4,HXB2-D (RT K65R M184V),p24,1.08
Cc1occc1C(=S)Nc1ccc(Cl)c(C(=O)OC2CCCC2)c1,RT-M184V,CEM,IIIB,syncytia,0.6
Cc1ccnc2c1NC(=O)c1cccnc1N2C1CC1,RT-L74V M41L V106A T215Y,PBMC,NRTI resistant (RT L74V M41L V106A T215Y) MDR,p24,147
Cc1occc1C(=S)Nc1ccc(Cl)c(/C=N/OC(C)(C)C)c1,RT-Y181C,CEM,IIIB,cytopathic effect,1.88
O=c1[nH]cnc2c1ncn2[C@H]1CC[C@@H](CO)O1,RT-D67N T69N K70R M184V T215F K219Q,PBMC,7295-1 NRTI resistant recombinant,RT activity,1.9
CC(C)Oc1ccc(Cc2ccccc2)cc1C(=O)CC(=O)C(=O)O,IN-T66I S153Y N155S,,,,>125
C=C(C)OC(=O)N1c2cc(Cl)ccc2NC(=S)C1(C)C,RT-L100I,CEM,TIBO-1(RT-L100I),syncytia,3.79
CCOCn1c(Cc2ccccc2)c(C(C)C)c(=O)[nH]c1=O,RT-Y188L,CEM,IIIB,syncytia,5000
CC(C)=CCOc1cc(NC(=S)c2ccsc2C)ccc1Cl,RT-K103N,CEM,IIIB,cytopathic effect,6.67
Cc1cn([C@@H]2O[C@H](CO[Si](C)(C)C(C)(C)C)C3(OS(=O)(=O)C=C3N)[C@H]2O[Si](C)(C)C(C)(C)C)c(=O)n(C)c1=O,RT-E138K,CEM,TSAO(RT-E138K),syncytia,>1875
CCc1cc(NCc2nc3c(Cl)ccc(Cl)c3o2)c(=O)[nH]c1C,RT-Y181C,CEM,IIIB,syncytia,500
O=C(NCc1ccc(F)cc1)c1nc(N2CCCCS2(=O)=O)c2cccnc2c1O,INTG-T66I,,,,1
Cc1occc1C(=S)Nc1ccc(Cl)c(/C=N/OC(C)(C)C)c1,RT-V106A,CEM,IIIB,syncytia,2.6
Fc1cccc(F)c1C1OCc2nc3ccccc3n21,RT-V106A,CEM,Nevirapine-resistant (RT V106A),cytopathic effect / MTT,>3.64
Cc1nnc(C[C@H](C[C@H](O)CN2CCN(Cc3ccc(-c4ccc(Cl)cc4)o3)C[C@H]2C(=O)NCC(F)(F)F)C(=O)N[C@H]2c3ccccc3OC[C@H]2O)o1,PR-L10I M36I N37D M46I R57K L63P A71V G73S I84V L90M I93L,MT-4,V-18 Clinical isolate,p24,1
O=c1[nH]cnc2c1ncn2[C@H]1CC[C@@H](CO)O1,RT-K103N,MT-2,,p24,1.3

The first 4 rows once more:

structure | mutations | cells | strain or isolate | method | value
Cc1ccnc2c1NC(=O)c1cccnc1N2C1CC1 | RT-D67G | CBMC | HxB2D(RT-D67G) | RT activity | 0.406
Cc1cn([C@H]2C=C[C@@H](CO)O2)c(=O)[nH]c1=O | RT-delta67 K103N | MT-2 |  | p24 | 7.1
CC(=O)Oc1ccc(/C=C/C(=O)O[C@@H](C(=O)O)[C@@H](OC(=O)/C=C/c2ccc(OC(C)=O)c(OC(C)=O)c2)C(=O)O)cc1OC(C)=O | AMD3100-resistant | MT-4 | NL4-3 |  | >9.25
CC(C)CN(C[C@@H](O)[C@H](Cc1ccccc1)NC(=O)O[C@H]1CO[C@H]2OCC(F)(F)[C@H]21)S(=O)(=O)c1ccc(N)cc1 | A28S L33F V82I GRL04810-resistant | MT-4 | NL4-3 |  | 13